The assay concerns the target SARS1-RBD-Fc (SARS-CoV-1).

B1: monomeric tagged soluble pangolin ACE2 (pangolin ACE2-CT) (domain or fragment)
chain: QSTSDEEAKTFLEKFNSEAEELSYQSSLASWNYNTNITDENVQKMNVAGAKWSTFYEEQSKIAKNYQLQNIQNDTIKRQLQALQLSGSSALSADKNQRLNTILNTMSTIYSTGKVCNPGNPQECSLLEPGLDNIMESSKDYNERLWAWEGWRSEVGKQLRPLYEEYVVLKNEMARANHYEDYGDYWRGDYEAEGANGYNYSRDHLIEDVEHIFTQIKPLYEHLHAYVRAKLMDNYPSHISPTGCLPAHLLGDMWGRFWTNLYPLTVPFRQKPNIDVTDAMVNQTWDANRIFKEAEKFFVSVGLPKMTQTFWENSMLTEPGDGRKVVCHPTAWDLGKHDFRIKMCTKVTMDDFLTAHHEMGHIQYDMAYAMQPYLLRNGANEGFHEAVGEIMSLSAATPKHLKNIGLLPPDFYEDNETEINFLLKQALTIVGTLPFTYMLEKWRWMVFSGQIPKEQWMKKWWEMKREIVGVVEPVPHDETYCDPASLFHVANDYSFIRYYTRTIYQFQFQEALCQTAKHEGPLHKCDISNSAEAGQKLLQMLSLGKSKPWTLALERVVGTKNMDVRPLLNYFEPLLTWLKEQNKNSFVGWNTDWSPY
Broadly, the Kd is the constant that tells how readily two partners part at equilibrium. Low values mean a tighter complex, high ones a looser complex. For the molecule B1, binding was put at a Kd of 1.57 µM.
